Anti-infective test results gathered from many reports (values: NIAID ChemDB through PubChem).

Common to all: tests in culture; species: HIV-1; cell line: MT-4; measure: EC50

ECn: concentration that inhibits the pathogen or its effect by n%. An empty or dashed field is not shown. Lines come from different laboratories, so protocols vary.

smiles,strain,mutations,read by,value
O=C1/C(=C/c2ccc(O)c([N+](=O)[O-])c2)CNC/C1=C\c1ccc(O)c([N+](=O)[O-])c1,,,cytopathic effect / MTT,>11 µM
CC(C)=CCc1c(O)cc2occ(-c3ccc4c(c3O)C=CC(C)(C)O4)c(=O)c2c1O,IIIB,,MTT,>20 µg/mL
Cc1cc(C#N)cc(C)c1Oc1nc(N/N=C/C2CCN(Cc3ccc([N+](=O)[O-])cc3)CC2)nc2ccsc12,IIIB,,MTT,>13.4 µM
Cc1c(CC23CC4CC(CC(C4)C2)C3)nc(SCC(=O)c2ccccc2)[nH]c1=O,RES056,,MTT / absorbance,>306 µM
CC(C)=CCc1cc(C(=O)CC(=O)c2cc3c(cc2O)OC(C)(C)C=C3)ccc1O,IIIB,,cytopathic effect / MTT,>20 µg/mL
CC(C)=CCN(C(C)C(=O)O)S(=O)(=O)c1cc(Cl)ccc1N,,,cytopathic effect / MTT,109 µM
Cc1cc(/C=C/C#N)cc(C)c1Oc1nc(N/N=C/c2ccc(C#N)cc2)nc2ccsc12,RES056,K103N/Y181C,MTT,>96.6 µM
CC1C(=O)Nc2ccc(Cl)cc2S(=O)(=O)N1CC1OC1(C)C,,,cytopathic effect / MTT,5 µM
C=C1[C@H](CO)[C@@H](O)C[C@@H]1n1cnc2c(=O)[nH]c(N)nc21,IIIB,,MTT,0.004 µM
CC(C)=CCc1c(-c2cc(O)c(O)cc2O)oc2c3c(cc(O)c2c1=O)OC(C)(C)C=C3,IIIB,,cytopathic effect / MTT,>20 µg/mL
O=C1/C(=C/c2ccc(Cl)c(Cl)c2)COC/C1=C\c1ccc(Cl)c(Cl)c1,,,cytopathic effect / MTT,>200 µM
CCc1c(CC23CC4CC(CC(C4)C2)C3)nc(SCC(=O)Nc2ccc(C)cc2[N+](=O)[O-])[nH]c1=O,IIIB,,MTT / absorbance,1.25 µM
COc1cc(O)c(-c2coc3cc(O)ccc3c2=O)c(OC)c1CC=C(C)C,IIIB,,MTT,>100 µg/mL
O=C1N(Cc2ccc(CO)cc2)[C@H](Cc2ccccc2)[C@H](O)[C@@H](O)[C@@H](Cc2ccccc2)N1Cc1ccc(CO)cc1,IIIB,PR-I84V L90M,cytopathic effect / XTT,0.32 µM
CC1C(=O)Nc2c([N+](=O)[O-])cc(Cl)cc2S(=O)(=O)N1CC1OC1(C)C,,,cytopathic effect / MTT,>200 µM
Cc1cc(C#N)cc(C)c1Oc1nc(N/N=C/C2CCN(Cc3ccc(F)cc3)CC2)nc2ccsc12,IIIB,,MTT,>5.48 µM
COc1ccc(-c2coc3cc(O)cc(O)c3c2=O)cc1,IIIB,,MTT,>100 µg/mL
CC1C(=O)Nc2ccc(Cl)cc2S(=O)(=O)N1Cc1c(F)cccc1F,,,cytopathic effect / MTT,0.2 µM
O=C1N(Cc2ccc(CO)cc2)[C@H](Cc2ccccc2)[C@H](O)[C@@H](O)[C@@H](Cc2ccccc2)N1Cc1ccc(CO)cc1,NL4-3,PR-V82T,p24,<0.1 µM
CN1C/C(=C\c2ccc(O)c([N+](=O)[O-])c2)C(=O)/C(=C/c2ccc(O)c([N+](=O)[O-])c2)C1,,,cytopathic effect / MTT,>25 µM
COc1ccc(-c2coc3cc(O)c(OC)cc3c2=O)cc1,IIIB,,MTT,>100 µg/mL
COc1ccc(C(=O)CSc2nc(CC34CC5CC(CC(C5)C3)C4)c(C)c(=O)[nH]2)cc1,IIIB,,MTT / absorbance,2.55 µM
CO[P@](=O)(c1cc(C)cc(/C=C/C#N)c1)c1c(C(N)=O)[nH]c2ccc(Cl)c(F)c12,IIIB,Y181C,,0.0028 µM
COc1ccc(C2CC(=O)c3c(cc(O)c(CC=C(C)C)c3O)O2)c(CC=C(C)C)c1O,IIIB,,MTT,>100 µg/mL
Cc1cc(C#N)cc(C)c1Oc1nc(N/N=C/C2CCN(Cc3ccc(S(N)(=O)=O)cc3)CC2)nc2ccsc12,IIIB,,MTT,>3.6 µM
Nc1ccc(Cl)cc1S(=O)(=O)NCC(=O)O,,,cytopathic effect / MTT,>200 µM
CC(C)=CCN1Cc2cc(Cl)cc3[nH]c(=S)n(c23)C[C@@H]1C,,RT-K70R K103N,,<3 µM
CC(C)(C)NC(=O)[C@@H]1C[C@@H]2CCCC[C@@H]2CN1C[C@@H](O)[C@H](Cc1ccccc1)NC(=O)[C@H](CC(N)=O)NC(=O)c1ccc2ccccc2n1,NL4-3,PR-L10R M46I L63P V82T I84V,p24,<0.2 µM
CC(C)=CCN1C(C)Cn2c(=O)[nH]c3cc(Cl)cc(c32)S1(=O)=O,,,cytopathic effect / MTT,100 µM
OC1/C(=C/c2ccc(Cl)c(Cl)c2)COC/C1=C\c1ccc(Cl)c(Cl)c1,,,cytopathic effect / MTT,>165 µM
COc1cc2occ(-c3ccc(O)cc3)c(=O)c2c(O)c1CC=C(C)C,IIIB,,MTT,>100 µg/mL
COc1ccc(CSc2nc(CC34CC5CC(CC(C5)C3)C4)c(C)c(=O)[nH]2)cc1,RES056,,MTT / absorbance,>1.92 µM
O=C1/C(=C/c2ccc([N+](=O)[O-])c(O)c2)CNC/C1=C\c1ccc([N+](=O)[O-])c(O)c1,,,cytopathic effect / MTT,>1.2 µM
CCc1c(CC23CC4CC(CC(C4)C2)C3)nc(SCC(=O)Nc2ccc(C#N)cc2)[nH]c1=O,RES056,,MTT / absorbance,>5.49 µM
COc1c(CC=C(C)C)c(O)cc2c1C[C@H](c1ccc(O)cc1O)CO2,IIIB,,MTT,>100 µg/mL
O=C1NC(=S)NC(=O)C1=Cc1cc(O)c(O)c(O)c1,,,cytopathic effect / MTT,20 µM